Consider one molecule from patent US11357857B2, “Excipient compounds for protein processing” (COMERA LIFE SCIENCES, INC., priority 2014, dated 2022).

In the series the test system is bovine gamma globulin (BGG). The series can be described thus: Viscosity of 280 mg/mL BGG formulations in 50 mM histidine HCl pH 6 with excipient, cone and plate viscometer (Examples 1, 2, 4-6). It counts as physicochemical.

As to `OCCN(CCO)CCO`, where the note is “excipient 38 mg/mL”, the Viscosity turned out to be 57 cP and the “Viscosity Reduction” value was 28%. Under “excipient 97 mg/mL”, the Viscosity worked out at 51 cP and the “Viscosity Reduction” value amounted to 35%.
